In patent US4346087A, “Antibacterial surface active agent containing azaalkenelactam” (priority 1979, dated 1982):

What was measured:
[1] = Metal corrosion inhibition in brake fluid A, brass; conditions: 100°±2° C., 120±2 hours, blank -0.20
[2] = Metal corrosion inhibition in brake fluid A, aluminum; conditions: 100°±2° C., 120±2 hours, blank +0.07
[3] = Metal corrosion inhibition in brake fluid A, tin-plate; conditions: 100°±2° C., 120±2 hours, blank -0.15
[4] = Metal corrosion inhibition in brake fluid A, steel; conditions: 100°±2° C., 120±2 hours, blank -0.20
[5] = Metal corrosion inhibition in brake fluid A, copper; conditions: 100°±2° C., 120±2 hours, blank +0.18
[6] = Metal corrosion inhibition in brake fluid A, cast iron; conditions: 100°±2° C., 120±2 hours, blank -0.14
[7] = Table 5, carboxylate derivatives […] by weight in brake fluid A
[8] = Table 4, azaalkenelactams […] by weight in brake fluid A

| Compound | Weight change, brass [1, 7] | Weight change, aluminum [2, 7] | Weight change, tin-plate [3, 7] [mg/cm^2] | Weight change, steel [4, 7] [mg/cm^2] | Weight change, copper [5, 7] [mg/cm^2] | Weight change, cast iron [6, 7] [mg/cm^2] | Weight change, brass [1, 8] [mg/cm^2] | Weight change, aluminum [2, 8] | Weight change, tin-plate [3, 8] [mg/cm^2] | Weight change, steel [4, 8] [mg/cm^2] | Weight change, copper [5, 8] | Weight change, cast iron [6, 8] [mg/cm^2] |
| --- | --- | --- | --- | --- | --- | --- | --- | --- | --- | --- | --- | --- |
| CCCCCCCCCCCC(=O)OCCN1CCC[N+](CC(=O)[O-])=C(C)CC1=O [1-lauroyloxyethyl-4-methyl-1-aza-5-azoniacyclooct-4-en-2-one-5-acetate] | 0 mg/cm^2 | +0.02 mg/cm^2 | -0.03 | -0.02 | 0 | -0.02 |  |  |  |  |  |  |
| CCCCCCCCCCCCCCCCCCCCC(O)CNCCNCCN1CCC[N+](CC(=O)[O-])=C(C)CC1=O (centres unmarked) [1-(2-hydroxy)docosylaminoethylaminoethyl-4-methyl-1-aza-5-azoniacyclooct-4-en-2-one-5-acetate] | -0.02 mg/cm^2 | +0.01 mg/cm^2 | -0.03 | -0.03 | -0.01 | -0.02 |  |  |  |  |  |  |
| CCCCCCCCCCCCN1CCCN=C(C)CC1=O [Example 3, 1-dodecyl-4-methyl-3,6,7,8-tetrahydro-1,5-diazocin-2-one] |  |  |  |  |  |  | -0.01 | +0.01 mg/cm^2 | 0 | 0 | +0.01 mg/cm^2 | -0.02 |
| CCCCCCC(O)CC=CCCCCCCCC(=O)OC(C)CN1CCC[N+](CC(=O)[O-])=C(C)CC1=O (centres unmarked) | -0.01 mg/cm^2 | 0 mg/cm^2 | -0.03 | -0.01 | -0.01 | -0.01 |  |  |  |  |  |  |
| CCCCCCCCCCCCCCNCCN1CC[N+](CC(=O)[O-])=C(C)CC1=O [4-tetradecylaminoethyl-7-methyl-1-azonia-4-azacyclohept-7-en-5-one-1-acetate] | 0 mg/cm^2 | 0 mg/cm^2 | -0.01 | -0.02 | 0 | -0.01 |  |  |  |  |  |  |
| 4-behenoyloxypropyl-6-methyl-2,3,6,7-tetrahydro-1,4-diazocin-5-one [Example 68] |  |  |  |  |  |  | -0.01 | +0.01 mg/cm^2 | -0.01 | -0.02 | +0.02 mg/cm^2 | -0.02 |
| CCCCCCCC(=O)NCCN1CCN=CCCC1=O [Example 56, 4-octamidoethyl-2,3,6,7-tetrahydro-1,4-diazocin-5-one] |  |  |  |  |  |  | -0.02 | +0.02 mg/cm^2 | -0.02 | -0.01 | +0.01 mg/cm^2 | -0.02 |
| CCCCCCCCCCCCCCNCCN1CCCN=CC(C)(C)C1=O [Example 60, 1-tetradecylaminoethyl-3,3-dimethyl-6,7,8-trihydro-1,5-diazocin-5-one] |  |  |  |  |  |  | -0.01 | 0 mg/cm^2 | -0.01 | 0 | +0.01 mg/cm^2 | -0.01 |
| CCCCCCCCCCCCCCNCCN1CCC[N+](C(C)C(=O)[O-])=CC(C)C1=O (centres unmarked) [1-tetradecylaminoethyl-3-methyl-1-aza-5-azoniacyclooct-4-en-2-one-5-propionate] | -0.01 mg/cm^2 | 0 mg/cm^2 | -0.01 | -0.02 | -0.01 | -0.02 |  |  |  |  |  |  |
| CCCCCCCCCCCCCCC(O)CNCCN1CCCN=CC(C)(C)C1=O (centres unmarked) [Example 61, 1-(2-hydroxyhexadecyl)aminoethyl-3,3-dimethyl-6,7,8-trihydro-1,5-diazocin-5-one] |  |  |  |  |  |  | 0 | +0.01 mg/cm^2 | 0 | -0.01 | +0.01 mg/cm^2 | -0.01 |
| CCCCCCCCCCCCCCNCCN1CC[N+](CC(=O)[O-])=CCCC1=O [4-tetradecylaminoethyl-4-aza-1-azoniacyclooct-8-en-5-one-1-acetate] | 0 mg/cm^2 | +0.01 mg/cm^2 | -0.02 | -0.02 | -0.01 | -0.01 |  |  |  |  |  |  |
| CCCCCCCCCCCC(=O)NCCN1CCN=C(C)CC1=O [Example 9, 4-lauramidoethyl-7-methyl-3,6-dihydro-2H-1,4-diazepin-5-one] |  |  |  |  |  |  | -0.02 | 0 mg/cm^2 | 0 | 0 | +0.03 mg/cm^2 | -0.01 |
| CCCCCCCCCCC(O)CN1CCN=C(C)CC1=O (centres unmarked) [Example 26, 4-(2-hydroxy)dodecyl-7-methyl-3,6-dihydro-2H-1,4-diazepin-5-one] |  |  |  |  |  |  | -0.01 | +0.01 mg/cm^2 | 0 | -0.01 | +0.03 mg/cm^2 | -0.02 |
| CCCCCCC(O)CC=CCCCCCCCC(=O)OC(C)CN1CCCN=C(C)CC1=O (centres unmarked) [Example 21] |  |  |  |  |  |  | -0.01 | +0.01 mg/cm^2 | 0 | -0.02 | +0.02 mg/cm^2 | 0 |
| CCCCCCCCCCCCNCCN1CC[N+](CC(=O)[O-])=C(C)CC1=O [4-dodecylaminoethyl-7-methyl-1-azonia-4-azacyclohept-7-en-5-one-1-acetate] | -0.03 mg/cm^2 | +0.01 mg/cm^2 | -0.02 | -0.02 | -0.04 | -0.01 |  |  |  |  |  |  |
| CCCCCCCCCCCCCCCCN1CCN=C(C)CC1=O [Example 5, 4-hexadecyl-7-methyl-3,6-dihydro-2H-1,4-diazepin-5-one] |  |  |  |  |  |  | -0.02 | 0 mg/cm^2 | -0.01 | -0.01 | +0.02 mg/cm^2 | 0 |
| CCCCCCCCCCCC(=O)OCCN1CC[N+](CC(=O)[O-])=CC(C)C1=O (centres unmarked) [4-lauroyloxyethyl-6-methyl-1-azonia-4-azacyclohept-7-en-5-one-1-acetate] | -0.02 mg/cm^2 | +0.02 mg/cm^2 | -0.03 | -0.03 | -0.02 | -0.04 |  |  |  |  |  |  |
| CCCCCCCCCCCCN1CCN=CC(C)C1=O (centres unmarked) [Example 42, 4-dodecyl-6-methyl-3,6-dihydro-2H-1,4-diazepin-5-one] |  |  |  |  |  |  | -0.02 | +0.01 mg/cm^2 | -0.02 | -0.01 | +0.01 mg/cm^2 | 0 |
| CCCCCCCCCCCCOCC(O)CN1CCCN=C(C)CC1=O (centres unmarked) [Example 33, 1-docoxy(2-hydroxy)propyl-4-methyl-3,6,7,8-tetrahydro-1,5-diazocin-2-one] |  |  |  |  |  |  | -0.02 | +0.01 mg/cm^2 | -0.01 | 0 | +0.02 mg/cm^2 | -0.01 |
| CCCCCCCCCCCCCCC(O)CNCCN1CC[N+](CC(=O)[O-])=C(C)CC1=O (centres unmarked) [4-(2-hydroxyhexadecyl)aminoethyl-7-methyl-1-azonia-4-azacyclohept-7-en-5-one-1-acetate] | +0.01 mg/cm^2 | 0 mg/cm^2 | -0.01 | -0.02 | -0.01 | -0.02 |  |  |  |  |  |  |
| CCCCCCCCCCCCOCC(O)CN1CCC[N+](C(C)C(=O)[O-])=C(C)CC1=O (centres unmarked) [1-docoxy(2-hydroxy)propyl-4-methyl-1-aza-5-azoniacyclooct-4-en-2-one-5-propionate] | -0.02 mg/cm^2 | 0 mg/cm^2 | -0.02 | -0.02 | -0.01 | -0.01 |  |  |  |  |  |  |
| CCCCCCCCCCCCNCCCN1CCC[N+](CC(=O)[O-])=C(C)CC1=O [1-dodecylaminopropyl-4-methyl-1-aza-5-azoniacyclooct-4-en-2-one-5-acetate] | -0.02 mg/cm^2 | +0.02 mg/cm^2 |  | -0.03 | -0.01 | -0.02 |  |  |  |  |  |  |
